Source: patent publication US20050192299A1, “Method of treating or preventing hepatitis B virus” (priority 1992, published 2005)

System: mitochondria DNA
Type: cell-based
Details: CEM cells
Experimental: The CEM cells (5×10^4) cells were collected and freeze-thawed three times. The cell lysate was incubated with RNase (10 μg/ml) at 37° C. for 30 minutes. The sample was treated with proteinase K (100 μg/ml) at 55° C. for 1 hour. A 0.8 volume of supersaturated Nal (2.5 gNaI in 1 ml hot water) was added to the sample and heated at 90° C. for 10 minutes. The DNA was immobilized on nitrocellulose paper by using a slot blot apparatus (Schleicher & Schuell, Keene, NH). The mtDNA on the nitrocellulose paper was detected with a mtDNA specific probe as described previously (Chen, C. H., Cheng, Y. C., “relayed Cytotoxicity and Selective Loss of Mitochondria DNA in Cells Treated with the Anti-Human Immunodeficiency Virus Compound 2′,3′-Dideoxycytidine,” J. Biol. Chem. 264: 11934-11937, 1989).
Mitochondria DNA content was measured by slot blot hybridization analysis. […] Thus, D4C would be expected to have a mitochondria effect before the anti-HBV effect was achieved as the same phenomenon observed in treatment with ddC.

Row | Structure (SMILES) | ED30/MtID30
1 | Nc1ccn([C@H]2C[C@H](F)[C@@H](CO)O2)c(=O)n1 [3′-FddC, 3′-fluoro-2′,3′-dideoxycytidine] | 409
2 | Nc1ccn([C@H]2C=C[C@@H](CO)O2)c(=O)n1 [D4C, 2′,3′-didehydro-2′,3′-dideoxycytidine] | 11
3 | Nc1ccn([C@H]2CC[C@@H](CO)O2)c(=O)n1 [ddC, 2′,3′ dideoxycytidine] | 454
